Compound potency records, mixed from different reports. Data source: NIAID ChemDB in PubChem.

All rows: host cell toxicity; cells: MT-4; read-out: CC50

Neighbouring rows are from separate reports. CCn: concentration that lowers growth or viability of the cells by n%.

{"compound": "COc1cccc(OC)c1CCNC(=S)Nc1nccs1", "result": "37 µM"}
{"compound": "COc1ccc(N/C(C)=C\\C(=O)c2c(O)c(S(=O)(=O)Oc3ccc([N+](=O)[O-])cc3)c3occc3c2OC)cc1", "method": "MTT", "result": "400 µM"}
{"compound": "CC(=O)Nc1ccc(S(=O)(=O)Nc2ccc(Nc3nc(Oc4c(C)cc(C#N)cc4C)c4sccc4n3)cc2)cc1", "method": "MTT", "result": "12.66 µM"}
{"compound": "COc1c2ccoc2c(S(=O)(=O)OC2CCCCC2)c2oc(C)cc(=O)c12", "method": "MTT", "result": "610 µM"}
{"compound": "CCOC(=O)c1c(Br)c(-c2ccccc2)n(COCCOC(C)=O)c1-c1ccccc1", "method": "MTT", "result": "47 µM"}
{"compound": "CCCCc1csc(NC(=S)NCCc2ccccc2)n1", "result": "313 µM"}
{"compound": "COc1ccc(CCNc2nc(NC(=O)Nc3ccc(Br)cc3)nc(Oc3cc(=O)oc4ccccc34)n2)cc1OC", "method": "MTT", "result": "47.63 µg/mL"}
{"compound": "CC(=O)OCCOCn1c(-c2ccccc2)c(C#N)c([N+](=O)[O-])c1-c1ccccc1", "method": "MTT", "result": ">300 µM"}
{"compound": "C/C=C(\\C)C(=O)O[C@H]1[C@H](OC(=O)/C(C)=C/C)[C@@]23C(CC1(C)C)[C@]1(CCC4[C@@]5(C)CC[C@H](O[C@@H]6O[C@H](CO)[C@@H](O)[C@H](O[C@@H]7O[C@H](CO)[C@H](O)[C@H](O)[C@H]7O[C@@H]7O[C@@H](C)[C@H](O)[C@@H](O)[C@H]7O)[C@H]6O[C@@H]6O[C@H](CO)[C@H](O)[C@H](O)[C@H]6O)C(C)(C)C5CC[C@@]4(C)[C@]1(C)C[C@H]2O)O[C@@H]3O", "method": "MTT", "result": "<15 µg/mL"}
{"compound": "S=C(NCCc1ccccc1)Nc1ncc(Cl)s1", "result": "15 µM"}
{"compound": "CCOC(=O)c1cccn1S(=O)(=O)c1cccc(NC(C)=O)c1", "result": ">200 µM"}
{"compound": "C/C=C(\\C)C(=O)O[C@H]1[C@H](O)[C@@]23C(CC1(C)C)[C@]1(CCC4[C@@]5(C)CC[C@H](O[C@@H]6O[C@H](CO)[C@@H](O)[C@H](O[C@@H]7O[C@H](CO)[C@H](O)[C@H](O)[C@H]7O[C@@H]7O[C@@H](C)[C@H](O)[C@@H](O)[C@H]7O)[C@H]6O[C@@H]6O[C@H](CO)[C@H](O)[C@H](O)[C@H]6O)C(C)(C)C5CC[C@@]4(C)[C@]1(C)C[C@H]2OC(C)=O)O[C@@H]3O", "method": "MTT", "result": "<150 µg/mL"}
{"compound": "COc1c2ccoc2c(S(=O)(=O)Oc2ccc([N+](=O)[O-])cc2)c2oc(C)cc(=O)c12", "method": "MTT", "result": "560 µM"}
{"compound": "CCOC(=O)CNc1nc(Nc2cccc(Cl)c2)nc(Oc2cc(=O)oc3ccccc23)n1", "method": "MTT", "result": "56 µg/mL"}
{"compound": "CC(CNC(=S)Nc1nccs1)c1ccccc1", "result": "87 µM"}
{"compound": "C/C=C(\\C)C(=O)O[C@H]1[C@H](OC(C)=O)[C@@]23C(CC1(C)C)[C@]1(CCC4[C@@]5(C)CC[C@H](O[C@@H]6O[C@H](CO)[C@@H](O)[C@H](O[C@@H]7O[C@H](CO)[C@H](O)[C@H](O)[C@H]7O[C@@H]7O[C@@H](C)[C@H](O)[C@@H](O)[C@H]7O)[C@H]6O[C@@H]6O[C@H](CO)[C@H](O)[C@H](O)[C@H]6O)C(C)(C)C5CC[C@@]4(C)[C@]1(C)C[C@H]2O)O[C@@H]3O", "method": "MTT", "result": "<15 µg/mL"}
{"compound": "CCOC(=O)c1c([N+](=O)[O-])c(-c2ccccc2)n(COCCO)c1-c1ccccc1", "method": "MTT", "result": "163 µM"}
{"compound": "CCOC(=O)c1cccn1S(=O)(=O)c1cc(Cl)ccc1NC(=O)CN1CCCC1", "result": "111 µM"}
{"compound": "C/C=C(\\C)C(=O)O[C@H]1[C@H](OC(=O)CCC)[C@@]23C(CC1(C)C)[C@]1(CCC4[C@@]5(C)CC[C@H](O[C@@H]6O[C@H](CO)[C@@H](O)[C@H](O[C@@H]7O[C@H](CO)[C@H](O)[C@H](O)[C@H]7O[C@@H]7O[C@@H](C)[C@H](O)[C@@H](O)[C@H]7O)[C@H]6O[C@@H]6O[C@H](CO)[C@H](O)[C@H](O)[C@H]6O)C(C)(C)C5CC[C@@]4(C)[C@]1(C)C[C@H]2O)O[C@@H]3O", "method": "MTT", "result": "<15 µg/mL"}
{"compound": "Cc1cc(C#N)cc(C)c1Oc1nc(Nc2ccc(NS(=O)(=O)c3ccccc3)cc2)nc2ccsc12", "method": "MTT", "result": "19.65 µM"}
{"compound": "CCOC(=O)CNc1nc(NC(=O)Nc2ccc(F)cc2)nc(Oc2cc(=O)oc3ccccc23)n1", "method": "MTT", "result": ">125 µg/mL"}
{"compound": "CCOC(=O)c1cccn1S(=O)(=O)c1cc(Cl)ccc1NC(=O)CS(C)(=O)=O", "result": ">200 µM"}
{"compound": "Fc1cccc(Cl)c1CCNC(=S)Nc1nccs1", "result": "111 µM"}
{"compound": "Cc1cc(C#N)cc(C)c1Oc1nc(Nc2ccc(C#N)cc2)nc(N)c1Br", "method": "MTT", "result": ">4.585 µM"}
{"compound": "COc1ccc(NC(=O)Nc2nc(NCCc3ccc(OC)c(OC)c3)nc(Oc3cc(=O)oc4ccccc34)n2)cc1", "method": "MTT", "result": "61.6 µg/mL"}
{"compound": "COc1ccc(OC)c(CCNC(=S)Nc2nccs2)c1", "result": "86 µM"}
{"compound": "CCOC(=O)CNc1nc(NC(=O)Nc2ccc(Br)cc2)nc(Oc2cc(=O)oc3ccccc23)n1", "method": "MTT", "result": ">125 µg/mL"}
{"compound": "COc1c(-c2cc(C)[nH]n2)c(O)c(S(=O)(=O)OC2CCCC2)c2occc12", "method": "MTT", "result": "240 µM"}
{"compound": "CN(C(=S)NCCc1ccccc1)c1nccs1", "result": "65 µM"}
{"compound": "CCOC(=O)CNc1nc(Nc2ccc(OCC)cc2)nc(Oc2cc(=O)oc3ccccc23)n1", "method": "MTT", "result": "62.13 µg/mL"}
{"compound": "CC(=O)OCCOCn1c(-c2ccccc2)c(Br)c(Br)c1-c1ccccc1", "method": "MTT", "result": "23 µM"}
{"compound": "CCOC(=O)c1cccn1S(=O)(=O)c1cc(Cl)ccc1NC(=O)CSC", "result": "170 µM"}
{"compound": "COc1ccc(OS(=O)(=O)c2c3occc3c(OC)c3c(=O)cc(C)oc23)cc1", "method": "MTT", "result": "490 µM"}
{"compound": "N#Cc1c(N)c(-c2ccccc2)n(COCCO)c1-c1ccccc1", "method": "MTT", "result": ">300 µM"}
{"compound": "COc1cccc(F)c1CCNC(=S)Nc1nccs1", "result": "51 µM"}
{"compound": "COc1ccc(CCNc2nc(NC(=O)Nc3ccccc3C)nc(Oc3cc(=O)oc4ccccc34)n2)cc1OC", "method": "MTT", "result": "16.9 µg/mL"}
{"compound": "Cc1cc(C#N)cc(C)c1Oc1nc(Nc2ccc(NS(=O)(=O)c3ccc(-c4ccccc4)cc3)cc2)nc2ccsc12", "method": "MTT", "result": ">207 µM"}
{"compound": "C/C=C(\\C)C(=O)O[C@H]1[C@H](OC(=O)CCC)[C@@]23C(CC1(C)C)[C@]1(CCC4[C@@]5(C)CC[C@H](O[C@@H]6O[C@H](CO)[C@@H](O)[C@H](O[C@@H]7O[C@H](CO)[C@H](O)[C@H](O)[C@H]7O[C@@H]7O[C@@H](C)[C@H](O)[C@@H](O)[C@H]7O)[C@H]6O[C@@H]6O[C@H](CO)[C@H](O)[C@H](O)[C@H]6O)C(C)(C)C5CC[C@@]4(C)[C@]1(C)C[C@H]2OC(C)=O)O[C@@H]3O", "method": "MTT", "result": "<150 µg/mL"}
{"compound": "Cc1cc(C#N)cc(C)c1Oc1nc(NC2CCN(S(C)(=O)=O)CC2)nc2ccsc12", "method": "MTT", "result": "22.21 µM"}
{"compound": "CCOC(=O)CNc1nc(NC(=O)Nc2cccc(Cl)c2)nc(Oc2cc(=O)oc3ccccc23)n1", "method": "MTT", "result": ">125 µg/mL"}
{"compound": "COc1c(C(=O)/C=C(/C)Nc2ccc(Cl)cc2)c(O)c(S(=O)(=O)OC2CCCC2)c2occc12", "method": "MTT", "result": "420 µM"}
{"compound": "Cc1cc(C#N)cc(C)c1Oc1nc(NC2CCN(S(=O)(=O)N3CCOCC3)CC2)nc2ccsc12", "method": "MTT", "result": ">236.4 µM"}

The first 6 rows once more:

COc1cccc(OC)c1CCNC(=S)Nc1nccs1 ; result: 37 µM
COc1ccc(N/C(C)=C\C(=O)c2c(O)c(S(=O)(=O)Oc3ccc([N+](=O)[O-])cc3)c3occc3c2OC)cc1 ; method: MTT ; result: 400 µM
CC(=O)Nc1ccc(S(=O)(=O)Nc2ccc(Nc3nc(Oc4c(C)cc(C#N)cc4C)c4sccc4n3)cc2)cc1 ; method: MTT ; result: 12.66 µM
COc1c2ccoc2c(S(=O)(=O)OC2CCCCC2)c2oc(C)cc(=O)c12 ; method: MTT ; result: 610 µM
CCOC(=O)c1c(Br)c(-c2ccccc2)n(COCCOC(C)=O)c1-c1ccccc1 ; method: MTT ; result: 47 µM
CCCCc1csc(NC(=S)NCCc2ccccc2)n1 ; result: 313 µM